Among the data in paper PMC6572795, “The pore structure of Clostridium perfringens epsilon toxin” (2019) are stoichiometry N values, retold here.

This experiment concerns the target trypsin-activated recombinant wild-type epsilon toxin (Etx) (Clostridium perfringens).

By stoichiometry N is commonly meant a count of units in the complex or per binding partner. Take “trypsin-activated recombinant wild-type epsilon toxin (Etx)”: the stoichiometry N is 7.
